Assay results: PMC10508830 (Antiviral research, 2023)
pEC50: −log10 of the molar value. Like-named read-outs stand apart in the source and are kept apart here.

Assays:
[1] = system: A/chicken/Pennsylvania/22-012092-010/2022 (PA A37T); conditions: read-out: Mean EC50 ± SD; IRINA; MDCK-SIAT1 cells; chicken/PA-10/22, PA A37T
[2] = system: A/bald eagle/Wyoming/22-013015-001/2022 (PA V44A); conditions: read-out: Mean EC50 ± SD; IRINA; MDCK-SIAT1 cells; eagle/WY/22, PA V44A
[3] = system: A/chicken/Pennsylvania/22-012092-010/2022 (PA A37T); conditions: read-out: Mean EC50 ± SD; HINT; MDCK-SIAT1 cells; chicken/PA-10/22, PA A37T
[4] = system: A/chicken/Pennsylvania/22-012092-006/2022 (PA A37T); conditions: read-out: Mean EC50 ± SD; HINT; MDCK-SIAT1 cells; chicken/PA-6/22, PA A37T
[5] = system: A/bald eagle/Wyoming/22-013015-001/2022 (PA V44A); conditions: read-out: Mean EC50 ± SD; HINT; MDCK-SIAT1 cells; eagle/WY/22, PA V44A
[6] = system: A/fox/Michigan/22-014536-004/2022 (PA M61I, A85T); conditions: read-out: Mean EC50 ± SD, HINT, MDCK-SIAT1 cells, fox/MI/22, PA M61I
[7] = system: A/harbor seal/Maine/22-020983-002/2022 (PA A70V); conditions: read-out: Mean EC50 ± SD; IRINA; MDCK-SIAT1 cells; seal/ME-2/22, PA A70V
[8] = system: A/Cooper's hawk/Minnesota/22-012931-001/2022 (PA I38M); conditions: read-out: Mean EC50 ± SD; IRINA; MDCK-SIAT1 cells; hawk/MN-1/22, PA I38M
[9] = system: A/black vulture/Florida/22-012333-001/2022 (PA R185G); conditions: read-out: Mean EC50 ± SD; HINT; MDCK-SIAT1 cells; vulture/FL-33/22, PA R185G
[10] = system: A/Cooper's hawk/Minnesota/22-012931-001/2022 (PA I38M); conditions: read-out: Mean EC50 ± SD; HINT; MDCK-SIAT1 cells; hawk/MN-1/22, PA I38M

O=C1c2c(O)c(=O)ccn2N([C@@H]2c3ccccc3SCc3c2ccc(F)c3F)[C@@H]2COCCN12 [Baloxavir, baloxavir acid]
pEC50 [1]: 8.74 | pEC50 [2]: 9.43 | pEC50 [3]: 8.50 | pEC50 [4]: 8.49 | pEC50 [5]: 9.07 | pEC50 [6]: 9.10 | pEC50 [7]: 9.31 | pEC50 [8]: 8.53 | pEC50 [9]: 9.28 | pEC50 [10]: 8.48
